Measured values from several laboratories, pooled; numbers as filed in NIAID ChemDB.

All rows: host cell toxicity; cell line: CEM; read-out: CC50

Rows are shuffled and stem from different studies.

compound | method | value
C#C[C@@]1(CO)C=C[C@H](n2cc(C)c(=O)[nH]c2=O)O1 | cell count | >100 µM
Cc1cn([C@H]2C[C@H](N=C(N)N)[C@@H](CO)O2)c(=O)[nH]c1=O | - | 3.5 µM
Cc1cc(C)cc(Sc2c(C(C)C)c(=O)[nH]c(=O)n2CCC2CC=CC2)c1 | - | 15.6 µM
O=C(Nc1ccc(C[C@H](NC(=O)c2ccccc2SSc2ccccc2C(=O)N[C@@H](Cc2ccc(NC(=O)OCc3ccccc3)cc2)C(=O)O)C(=O)O)cc1)OCc1ccccc1 | - | >100 µM
CCCCCCCC/C=C\CCCCCCCC(=O)OCC(COC(=O)CCCCCCC/C=C\CCCCCCCC)OC(=O)CCC(=O)O[C@@H](C[C@@H](Cc1ccccc1)C(=O)N[C@H]1c2ccccc2C[C@H]1OC(=O)CCC(=O)OC(COC(=O)CCCCCCC/C=C\CCCCCCCC)COC(=O)CCCCCCC/C=C\CCCCCCCC)CN1CCN(Cc2cccnc2)C[C@H]1C(=O)NC(C)(C)C | MTT | >100 µM
NC(=O)c1cccc(SSc2cccc(C(N)=O)c2)c1 | - | 101 µM
O=c1[nH]cnc2c1ncn2C[C@H]1C[C@H]1[C@H](O)CO | - | >100 µM
Cc1cc2c(cc1Cl)SC(C(=O)c1ccc(Cl)c(Cl)c1)=NS2(=O)=O | XTT | 143 µM
Cc1cn([C@H]2CC[C@@H](COC(=O)c3ccccc3)O2)c(=O)[nH]c1=O | - | >625 µM
O=C(C1=NS(=O)(=O)c2ccc(Cl)cc2S1)c1ccc(Cl)cc1 | XTT | >200 µM
Cc1cn([C@H]2C[C@H](N=[N+]=[N-])[C@@H](CO)O2)c(=O)[nH]c1=O | MTT | >1 µM
CC(C)(C)NC(=O)[C@@H]1CN(Cc2cccnc2)CCN1C[C@@H](O)C[C@@H](Cc1ccccc1)C(=O)N[C@H]1c2ccccc2C[C@H]1OC(=O)CCCCOc1ccc(C[C@H](NC(=O)OC(C)(C)C)C(=O)O)cc1 | MTT | >100 µM
CC(C)OC(=S)Nc1ccc(Cl)c(OC(F)F)c1 | - | 34.7 µM
CC(C)C(N)C(=O)O[C@H](CN1C[C@H]2CCCC[C@H]2C[C@H]1C(=O)NC(C)(C)C)[C@H](Cc1ccccc1)NC(=O)[C@H](CC(N)=O)NC(=O)c1ccc2ccccc2n1 | MTT | >100 µM
C#CCO/N=C/c1cc(NC(=O)c2ccoc2C)ccc1Cl | - | 16 µM
CCc1c(Oc2cc(C)cc(C)c2)n(CCC2CC=CC2)c(=O)[nH]c1=O | - | >1120 µM
Cc1cn([C@H]2C[C@H](NC=O)[C@@H](CO)O2)c(=O)[nH]c1=O | - | 74 µM
CC(C)C[C@H](NC(=O)c1ccccc1SSc1ccccc1C(=O)N[C@@H](CC(C)C)C(=O)OC(C)(C)C)C(=O)OC(C)(C)C | - | >100 µM
COC(=O)[C@H](C)NP(=O)(OC[C@@H]1C=C[C@H](n2cc(CC(=O)NCCCCCCNC(=O)C(F)(F)F)c(=O)[nH]c2=O)O1)Oc1ccccc1 | MTT | >10 µM
Nc1nc2c(ncn2C[C@H]2C[C@H]2[C@H](O)CO)c(=O)[nH]1 | - | >100 µM
O=C(Cc1cn([C@H]2C=C[C@@H](CO)O2)c(=O)[nH]c1=O)NCCCCCCCCNC(=O)c1c2ccccc2nc2ccccc12 | MTT | >10 µM
[N-]=[N+]=N[C@@H]1C[C@@H](n2cc(F)c(N)nc2=O)O[C@H]1CO | trypan blue | >100 µM
CCc1c(Oc2cc(C)cc(C)c2)n(CC2CC=CC2)c(=O)[nH]c1=O | - | >60 µM
CC(C)(C)NC(=O)[C@@H]1CN(Cc2cccnc2)CCN1C[C@@H](O)C[C@@H](Cc1ccccc1)C(=O)N[C@H]1c2ccccc2C[C@H]1OC(=O)[C@H](Cc1ccccc1)NC(=O)OC(C)(C)C | MTT | >100 µM
C#CCO/N=C/c1cc(NC(=S)c2ccoc2C)ccc1Cl | - | 16 µM
Cc1cc(C)cc(C(=O)c2c(C(C)C)c(=O)[nH]c(=O)n2Cc2ccccc2)c1 | - | 22.3 µM
O=c1ccn(C[C@H]2C[C@H]2CO)c(=O)[nH]1 | - | >100 µM
COC(=O)[C@H](C)NP(=O)(OC[C@@H]1C=C[C@H](n2cc(CC(=O)NCCCCCCCCNC(=O)C(F)(F)F)c(=O)[nH]c2=O)O1)Oc1ccccc1 | MTT | >100 µM
Nc1ncnc2c1ncn2C1CC(CO)(CO)C1 | - | >30 µg/mL
Nc1ccn([C@H]2S[C@@H](CO)C=C2F)c(=O)n1 | - | >100 µM
Cc1cn(C2OC(CO[Si](C)(C)C(C)(C)C)C3(OS(=O)(=O)C=C3N)C2O[Si](C)(C)C(C)(C)C)c(=O)n(CC2CO2)c1=O | - | 47 µM
NS(=O)(=O)c1ccc(NC(=O)c2ccc(SSc3ccc(C(=O)Nc4ccc(S(N)(=O)=O)cc4)cc3)cc2)cc1 | - | >100 µM
Nc1ccn([C@@H]2O[C@H](CO)C=C2F)c(=O)n1 | - | 35.3 µM
O=P(O)(O)OP(=O)(O)OP(=O)(O)OP(=O)(O)OP(=O)(O)OP(=O)(O)OP(=O)(O)OP(=O)(O)OP(=O)(O)OP(=O)(O)OP(=O)(O)OP(=O)(O)OP(=O)(O)OP(=O)(O)OP(=O)(O)O | MTT | >100 µg/mL
COC(=O)N[C@H]1C[C@H](n2cc(C)c(=O)[nH]c2=O)O[C@@H]1CO | - | 17 µM
Cc1cc(C)cc(Oc2c(C(C)C)c(=O)[nH]c(=O)n2CC2=CCCC2)c1 | - | 24.6 µM
CC(C)[C@@H](CC(=O)O)NC(=O)c1ccccc1SSc1ccccc1C(=O)N[C@H](CC(=O)O)C(C)C | - | >100 µM
Cc1cc(C)cc(C(=O)c2c(C(C)C)c(=O)[nH]c(=O)n2CC2CCCC2)c1 | - | 17.9 µM
CC(C)(C)NC(=O)[C@@H]1CN(Cc2cccnc2)CCN1C[C@H](C[C@@H](Cc1ccccc1)C(=O)N[C@H]1c2ccccc2C[C@H]1OC(=O)CCCCOc1ccc(C[C@H](N)C(=O)O)cc1)OC(=O)CCCCOc1ccc(C[C@H](N)C(=O)O)cc1 | MTT | >100 µM
O=C1NC(=O)C(CSCc2ccc([N+](=O)[O-])cc2)(CSCc2ccc([N+](=O)[O-])cc2)N1 | - | >9 µM
O=C(N[C@@H](CCC1CCCCC1)C(=O)O)c1ccccc1SSc1ccccc1C(=O)N[C@@H](CCC1CCCCC1)C(=O)O | - | 75 µM
Nc1nc2c(ccn2C2CC(CO)(CO)C2)c(=O)[nH]1 | - | >30 µg/mL
O=C(C1=NS(=O)(=O)c2ccc(Cl)cc2S1)c1ccc2ccccc2c1 | XTT | 170 µM
Nc1ccn([C@H]2O[C@@H](CO)C=C2F)c(=O)n1 | - | >100 µM
Cc1cn(C2OC(CO[Si](C)(C)C(C)(C)C)C3(OS(=O)(=O)C=C3N)C2O[Si](C)(C)C(C)(C)C)c(=O)n(CC(=O)N(CCCl)CCCl)c1=O | - | 86 µM
Cc1cc(C)cc(Oc2c(C(C)C)c(=O)[nH]c(=O)n2CCC2CCCC2)c1 | - | 17.6 µM
Cc1cn([C@H]2C[C@H](NC#N)[C@@H](CO)O2)c(=O)[nH]c1=O | - | 75 µM
CC(C)C[C@@H](C(=O)O)N(C)C(=O)c1ccccc1SSc1ccccc1C(=O)N(C)[C@@H](CC(C)C)C(=O)O | - | >100 µM
O=C(NC1CC1)c1ccccc1SSc1ccccc1C(=O)NC1CC1 | - | 90 µM
Cc1occc1C(=S)Nc1ccc(Cl)c(/C=N/OC2CCCC2)c1 | - | >14 µM
Nc1nc(=O)n([C@H]2O[C@@H](CO)C=C2F)cc1F | - | >100 µM
CC(C)OC(=S)Nc1ccc(Cl)c(OC(=O)C(C)C)c1 | - | 55.6 µM
O=C1NC(=O)C(CS)(CS)N1 | - | >3 µM
Cc1cn(C2OC(CO[Si](C)(C)C(C)(C)C)C3(OS(=O)(=O)C=C3N)C2O[Si](C)(C)C(C)(C)C)c(=O)n(CCCNC(=O)c2ccc(N=[N+]=[N-])cc2O)c1=O | - | ≥250 µM
Cc1cn([C@H]2CC[C@@H](CO)O2)c(=O)[nH]c1=S | - | >93 µM
CCCC1(Cc2ccc3ccccc3c2)CC(O)=C(Sc2ccccc2C)C(=O)O1 | - | 34.8 µM
CC(C)C(NC(=O)c1ccccc1SSc1ccccc1C(=O)NC(C(=O)O)C(C)C)C(=O)O | - | >200 µM
COC(=O)Cc1cn([C@H]2C=C[C@@H](CO)O2)c(=O)[nH]c1=O | MTT | 230 µM
CCc1c(C(=O)c2cc(C)cc(C)c2)n(CC2CCCCC2)c(=O)[nH]c1=O | - | >1080 µM
CC(=O)N[C@@H](Cc1cccc2ccccc12)C(=O)N[C@H](C(=O)N[C@@H](CC(C)C)[C@@H](O)CC(=O)N[C@@H](CC(C)C)C(=O)N[C@@H](Cc1ccccc1)C(N)=O)C(C)C | - | >129 µM
O=C1NC(=O)C(CSc2ccncc2)(CSc2ccncc2)N1 | - | >100 µM
Cc1cn(C[C@H]2C[C@H]2[C@H](O)CO)c(=O)[nH]c1=O | - | >100 µM
COc1ccc(NC(=O)c2ccccc2SSc2ccccc2C(=O)Nc2ccc(OC)cc2)cc1 | - | 22 µM
O=C1NC(=O)C(CSCc2cccs2)(CSCc2cccs2)N1 | - | >100 µM

For reference, 8 entries again:

compound | method | value
CC(C)(C)NC(=O)[C@@H]1CN(Cc2cccnc2)CCN1C[C@H](C[C@@H](Cc1ccccc1)C(=O)N[C@H]1c2ccccc2C[C@H]1OC(=O)CCCCOc1ccc(C[C@H](N)C(=O)O)cc1)OC(=O)CCCCOc1ccc(C[C@H](N)C(=O)O)cc1 | MTT | >100 µM
Cc1cc(C)cc(Oc2c(C(C)C)c(=O)[nH]c(=O)n2CCC2CCCC2)c1 | - | 17.6 µM
CCc1c(Oc2cc(C)cc(C)c2)n(CC2CC=CC2)c(=O)[nH]c1=O | - | >60 µM
Cc1cn(C[C@H]2C[C@H]2[C@H](O)CO)c(=O)[nH]c1=O | - | >100 µM
Cc1cn(C2OC(CO[Si](C)(C)C(C)(C)C)C3(OS(=O)(=O)C=C3N)C2O[Si](C)(C)C(C)(C)C)c(=O)n(CC(=O)N(CCCl)CCCl)c1=O | - | 86 µM
Nc1ncnc2c1ncn2C1CC(CO)(CO)C1 | - | >30 µg/mL
Cc1cn([C@H]2C[C@H](NC#N)[C@@H](CO)O2)c(=O)[nH]c1=O | - | 75 µM
CC(C)[C@@H](CC(=O)O)NC(=O)c1ccccc1SSc1ccccc1C(=O)N[C@H](CC(=O)O)C(C)C | - | >100 µM

CCn is the concentration with n% toxicity to the cells. Blank or dashed fields: not listed here.